Only a part is listed here, and it is no random draw. Records with an inconclusive call do not appear. Activity calls are given as the source filed them. Calls come from the whole dose curve; tested in A549 cells.

This passage reports activity change, negative = inhibition results from PubChem BioAssay AID720580 (National Center for Advancing Translational Sciences (NCATS), 2013).

The test in a line: qHTS for Stage-Specific Inhibitors of Vaccinia Orthopoxvirus: Venus Reporter Primary qHTS. Note: nearly all actives have a fitted effect of over 30% in size. The conditions noted are these: Vaccinia virus Venus reporter expression, fluorescence; series mostly up to 36.5 µM.
With `CCOC(=O)c1ccc(NP(C)(=O)Oc2cc(C)cc(C)c2)cc1` (stereo not drawn), the activity change, negative = inhibition result was “inactive”. As to `Cc1cc(C)cc(OP(C)(=O)Nc2ccc(C)cc2C)c1` (stereo not drawn), the activity change, negative = inhibition entry was “inactive”.

Regarding `Cc1cccc(OCC(=O)OC2CN3CCC2CC3)c1` (stereo not drawn), the activity change, negative = inhibition entry is “inactive”. Then `COc1ccccc1OP(C)(=O)Nc1cccc(Br)c1` (stereo not drawn), with “inactive”; and `CS(=O)(=O)c1ccc(Cl)c(NC(=O)COC(=O)C(O)(c2ccccc2)c2ccccc2)c1`, with “inactive”. On to `COc1cc(C(=O)NCC2(N3CCOCC3)CCCCC2)cc(Cl)c1OC(C)C`, for which the activity change, negative = inhibition entry is “inactive”. Under `O=[As](O)(O)c1cccnc1` stands “inactive”; under `O=C(OC1CN2CCC1CC2)c1ccc(Cl)cc1` (stereo not drawn), “inactive”; under `CCOP(=O)(Nc1cccc2ccccc12)OCC`, “inactive”.

Consider `CCCOP(=S)(Nc1nc(N)cc(=O)[nH]1)OCCC`, for which the activity change, negative = inhibition entry is “inactive”.

Turning to `Cc1ccc(C)c(NP(C)(=O)Oc2ccccc2)c1` (stereo not drawn), the activity change, negative = inhibition entry was “inactive”. Then `Nc1cccc2c([As](=O)(O)O)cccc12`, with “inactive”; and `CP(=O)(Nc1cccc(Br)c1)Oc1ccccc1` (stereo not drawn), with “inactive”. Under `Cc1cc(C)cc(OP(C)(=O)Nc2ccccn2)c1` (stereo not drawn) stands “inactive”. `Nc1ccccc1[As](=O)(O)c1ccccc1`: the activity change, negative = inhibition result was “inactive”. Take `O=C(O)COc1ccc([As](=O)(O)O)cc1[N+](=O)[O-]`: the activity change, negative = inhibition result was “inactive”. Turning to `CS(=O)(=O)c1cc([N+](=O)[O-])c2no[n+]([O-])c2c1`, the activity change, negative = inhibition entry was “inactive”.

For `O=P(Nc1nccs1)(c1ccccc1)c1nc2ccccc2s1` (stereo not drawn), the activity change, negative = inhibition result was “inactive”. Regarding `CCOP1(=S)c2c(C)nn(CCC#N)c2N=C(c2ccccc2F)N1C` (stereo not drawn), the activity change, negative = inhibition result is “inactive”. Then `CN(C(=O)Cc1ccc(Cl)c(Cl)c1)[C@H]1CC[C@@]2(CCCO2)C[C@@H]1N1CCCC1`, with “inactive”; and `CC1=NCCc2c1[nH]c1ccccc21.O=[N+]([O-])c1cc([N+](=O)[O-])c(O)c([N+](=O)[O-])c1`, with “inactive”.

Regarding `CCOP1(=S)c2c(C)nn(CCC#N)c2N=C(c2ccc(F)cc2)N1C` (stereo not drawn), the activity change, negative = inhibition entry was “inactive”. For `CN(C(=O)Cc1ccccc1)[C@@H]1CC[C@]2(CCCO2)C[C@H]1N1CCCC1`, the activity change, negative = inhibition entry is “inactive”.

Regarding `N#CCCN(C(=O)COC(=O)C(O)(c1ccccc1)c1ccccc1)c1ccc(F)cc1`, the activity change, negative = inhibition entry was “inactive”. Under `NC(=O)Nc1ccc([As](=O)(O)O)cc1` stands “inactive”. Regarding `CCCC1OP(=O)(Nc2ccccc2)OCC1CC` (stereo not drawn), the activity change, negative = inhibition result is “inactive”. Then `O=C(/C=C/c1ccccc1)OC1CN2CCC1CC2` (stereo not drawn), with “inactive”; and `O=[N+]([O-])c1cc([N+](=O)[O-])c(Nc2nnnn2CCO)c([N+](=O)[O-])c1`, with “inactive”.

As to `CN(C)C1(CNC(=O)c2ccc(S(C)(=O)=O)cc2)CCCCC1`, the activity change, negative = inhibition result is “inactive”. As to `CC1=C2N=C(C=C3N=C(C(C)=C4[N-][C@@](C)([C@@H]5N=C1[C@](C)(CCC(=O)NC[C@@H](C)OP(=O)([O-])O[C@H]1[C@@H](O)[C@@H](n6cnc7cc(C)c(C)cc76)O[C@@H]1CO)[C@H]5CC(N)=O)[C@@](C)(CC(N)=O)[C@@H]4CCC(N)=O)[C@@](C)(CC(N)=O)[C@@H]3CCC(N)=O)C(C)(C)[C@@H]2CCC(N)=O.[C-]#N.[Co+3]`, the activity change, negative = inhibition entry was “inactive”.

`COc1cc(C2NCCC3(OCCO3)C2(C)C)cc(OC)c1OC.O=[N+]([O-])c1cc([N+](=O)[O-])c(O)c([N+](=O)[O-])c1` (stereo not drawn): the activity change, negative = inhibition result is “inactive”. Take `COc1cc([N+](=O)[O-])ccc1[N+](=O)[O-]`: the activity change, negative = inhibition result was “inactive”. Then `Cc1ccc(C(=O)OC2CN3CCC2CC3)cc1` (stereo not drawn), with “inactive”; and `Cc1nn(-c2ccccc2)c2c1P(=O)(N1CCOCC1)N(C)C(c1ccccc1)=N2` (stereo not drawn), with “inactive”.

`Cc1ccc(OCC(=O)OC2CN3CCC2CC3)cc1` (stereo not drawn): the activity change, negative = inhibition result was “inactive”. Consider `O=[As](O)(c1cccs1)c1cccs1`, for which the activity change, negative = inhibition entry is “inactive”.

`CCCOc1ccc(NP(C)(=O)Oc2ccc(Cl)cc2)cc1` (stereo not drawn): the activity change, negative = inhibition result was “inactive”. As to `O=P1(Nc2ncccn2)COc2ccccc2OC1`, the activity change, negative = inhibition result was “inactive”. In the case of `CN(Cc1cccnc1)C(=O)COc1ccc(Cl)c(Cl)c1.O=[N+]([O-])c1cc([N+](=O)[O-])c(O)c([N+](=O)[O-])c1`, the activity change, negative = inhibition entry was “inactive”. Then `O=P1(N(CCCl)CCCl)NCCC(C(F)(F)F)O1` (stereo not drawn), with “inactive”. Under `CN(CCCl)Cc1cc(Cl)c(NC2=NCCN2)c(Cl)c1` stands “inactive”; under `CCOP(=O)(Nc1ccc(C)cn1)OCC`, “inactive”. Under `CCOP(=O)(NC(=NC(C)c1ccccc1)NC(C)c1ccccc1)OCC` (stereo not drawn) stands “inactive”. On to `Nc1ccc(CCCCOc2ccccc2)cc1.O=[N+]([O-])c1cc([N+](=O)[O-])c(O)c([N+](=O)[O-])c1`, for which the activity change, negative = inhibition result was “inactive”. Under `O=[N+]([O-])c1cc([N+](=O)[O-])c(-n2nnc3ccccc32)c([N+](=O)[O-])c1` stands “inactive”. Under `O=C(O)C(O)c1ccc(N(CCCl)CCCl)cc1.c1ccncc1` (stereo not drawn) stands “inactive”; under `O=P1(Nc2ccccn2)COc2ccccc2OC1`, “inactive”; under `CC1(CBr)Cn2c(nc3ccccc3c2=O)S1` (stereo not drawn), “inactive”. Then `Cc1nc2ccc3ccccc3c2s1.O=[N+]([O-])c1cc([N+](=O)[O-])c(O)c([N+](=O)[O-])c1`, with “inactive”; and `CC(C)/C=N\N=C(\N)N[N+](=O)[O-]`, with “inactive”; and `CN(C(=O)Cc1ccc(Cl)c(Cl)c1)[C@@H]1CCCC[C@H]1N1CCCC1`, with “inactive”.

Take `Cc1ccc(S(=O)(=O)N(CCCN)CCCc2c(C)nc(N)[nH]c2=O)cc1.O=[N+]([O-])c1cc([N+](=O)[O-])c(O)c([N+](=O)[O-])c1`: the activity change, negative = inhibition entry is “inactive”. Under `COc1ccccc1CNC(=O)COC(=O)C(O)(c1ccccc1)c1ccccc1` stands “inactive”.
